This passage reports Kd results from paper PMC4048260.

Common to all, as to assay: ELISA; purified trimeric gp140 coated on the plate (100 ng per well, over night, 4°C); CD4-Fc in 8 concentrations between 0 and 10 nM in PBS/0.1% Tween/0.1% BSA, 1.5 h, room temperature; HRP anti-human IgG, chemiluminescence; KD from nonlinear regression fits (PRISM)
For orientation: In an ELISA, binding on a coated surface is turned into a signal by an enzyme label.

Assay [1] deals with ADA gp140 trimer (HIV-1 strain ADA).
In assay [2] the target is NL4-3/ADA gp140 trimer (HIV-1 strain NL4-3 | HIV-1 strain ADA).
Assay [3] deals with NL4-3 gp140 trimer (HIV-1 strain NL4-3).

Turning to “CD4-Fc (from UniProt P01730 26-396) (Fc fusion)”, the values for the equilibrium dissociation constant (Kd) in assay [1], in assay [2] and in assay [3] were 3.28 nM, 5.17 nM and 5.21 nM, respectively.

What is called Kd is the free concentration of one partner at which half of the binding sites on the other are occupied at equilibrium, for simple one-to-one binding. Higher therefore signals weaker binding.
